Anti-infective test results gathered from many reports (values: NIAID ChemDB through PubChem).

All rows: cytotoxicity tests; cell line: TZM-bl; endpoint: CC50

CCn is the concentration with n% toxicity to the cells. Lines come from different laboratories, so protocols vary.

{"compound": "CCCCCOC(=O)C[C@H](NP(=O)(COC(CF)Cn1ccc(N)nc1=O)Oc1ccccc1)C(=O)OCCCCC", "read by": "visual reading", "result": "68.98 µM"}
{"compound": "CCCCCOC(=O)C[C@H](NP(=O)(CO[C@@H](CF)COc1nccc(N)n1)Oc1ccccc1)C(=O)OCCCCC", "read by": "luminescence", "result": "42.19 µM"}
{"compound": "CC1=CC2=C(C(C)C)C(O)C(=O)/C(=C\\N[C@H](CC(C)C)C(=O)O)C2C(O)=C1c1c(C)cc2c(C(C)C)c(O)c(O)c(C=N[C@@H](CC(C)C)C(=O)O)c2c1O.[Na+].[Na+]", "read by": "MTT", "result": "53.99 µM"}
{"compound": "CCC(Cl)C1(c2ccc(Cl)cc2)OC(=O)c2ccccc21", "read by": "MTT", "result": "250 µM"}
{"compound": "O=C1CSC(c2c(Cl)ncnc2Cl)N1c1ncccn1", "read by": "MTT", "result": "453 µg/mL"}
{"compound": "Clc1cc(/C=C/c2ccc(-c3ccccc3)cc2)nc2ccccc12", "read by": "MTT", "result": "78.11 µM"}
{"compound": "O=C1OC(CCl)(c2ccc(F)cc2)c2ccccc21", "read by": "MTT", "result": "290 µM"}
{"compound": "CC1=C\\[C@@H](C)[C@@H](CC(C)C)OC(=O)/C(C)=C/C=C/C=C/CCC[C@@H](O)CC(=O)[C@H](C)[C@@H](O)CC[C@@H](C)C(=O)\\C=C\\1", "result": "0.36 µM"}
{"compound": "O=C(O)c1ccc(-c2ccc(/C=C3/SC(=S)N(Cc4ccc(Cl)cc4)C3=O)[nH]2)cc1O", "read by": "XTT", "result": ">20 µM"}
{"compound": "CCOC(=O)C(Nc1ccc(OC)cc1)(c1c[nH]c2ccccc12)C(F)(F)F", "read by": "MTT", "result": "40.8 µM"}
{"compound": "CCC(Cl)C1(c2ccc(F)cc2)OC(=O)c2c(Cl)c(Cl)c(Cl)c(Cl)c21", "read by": "MTT", "result": "182 µM"}
{"compound": "O=C1CSC(c2c(Cl)cncc2Cl)N1n1cnnc1", "read by": "MTT", "result": "95.49 µg/mL"}
{"compound": "CCOC(=O)C(O)(c1c[nH]c2ccc([N+](=O)[O-])cc12)C(F)(F)F", "read by": "MTT", "result": "63.2 µM"}
{"compound": "C[C@@H]1CCCC[C@H]1Oc1cc(CCc2ccccc2)[nH]c(=O)c1I", "read by": "XTT / absorbance", "result": "164 µM"}
{"compound": "c1cc(CN2CCCNCCNCCCNCC2)ccc1CN1CCCNCCNCCCNCC1", "result": ">10 µM"}
{"compound": "O=C(O)c1ccc(C2=N/C(=C/c3c(O)[nH]c(=S)[nH]c3=O)C=C2)cc1O", "read by": "XTT", "result": ">20 µM"}
{"compound": "Cc1ccc([C@@]2(CCl)OC(=O)c3ccccc32)cc1", "read by": "MTT", "result": "146.7 µM"}
{"compound": "COc1cc(/C=C/c2cc(Cl)c3ccccc3n2)cc(OC)c1", "read by": "MTT", "result": "66 µM"}
{"compound": "CCOC(=O)C(N)(C1=CNC2C=CC=C(C)C12)C(F)(F)F", "read by": "MTT", "result": "56.6 µM"}
{"compound": "Cc1cc2c(C(C)C)c(O)c(O)c(C=O)c2c(O)c1-c1c(C)cc2c(C(C)C)c(O)c(O)c(C=O)c2c1O", "read by": "MTT", "result": "9.74 µM"}
{"compound": "COC(=O)C(N)(c1c[nH]c2ccc(Cl)cc12)C(F)(F)F", "read by": "MTT", "result": "130 µM"}
{"compound": "Cc1[nH]c2ccccc2c1CC(=O)NC(Cc1ccccc1)C(=O)N(C)c1ccccc1", "read by": "MTT", "result": "47 µM"}
{"compound": "C(=C1/CNC/C(=C\\c2ccco2)C1=NNc1ccccc1)/c1ccco1", "read by": "XTT", "result": ">58 µM"}
{"compound": "CC1=C\\[C@@H](C)[C@@H](CC(C)C)OC(=O)/C=C/C=C/C=C/CCCCC[C@@H](OS(=O)(=O)O)[C@H](O)[C@]2(O)O[C@@H](C[C@H](O)[C@H]2C)[C@@H](C)C(=O)\\C=C\\1", "result": "8.18 µM"}
{"compound": "CC(C)C[C@H](N)C(=O)O.[Na+]", "read by": "MTT", "result": "53.99 µM"}
{"compound": "CCOC(=O)C(N)(c1cn(CCC(C)C)c2ccccc12)C(F)(F)F", "read by": "MTT", "result": ">112 µM"}
{"compound": "Clc1cc(/C=C/c2ccc(N3CCOCC3)cc2)nc2ccccc12", "read by": "MTT", "result": "47.89 µM"}
{"compound": "CCOC(=O)C(O)(c1c[nH]c2cc(F)ccc12)C(F)(F)F", "read by": "MTT", "result": "111 µM"}
{"compound": "O=C1CSC(c2c(Cl)cccc2Cl)N1n1cnnc1", "read by": "MTT", "result": "171 µg/mL"}
{"compound": "COC(=O)C(N)(c1c[nH]c2ccccc12)C(F)(F)F", "read by": "MTT", "result": "95.51 µM"}
{"compound": "CCOC(=O)C(O)(c1c[nH]c2ccccc12)C(F)(F)F", "read by": "MTT", "result": "279 µM"}
{"compound": "Clc1cc(/C=C/c2ccc3ccccc3c2)nc2ccccc12", "read by": "MTT", "result": "8.23 µM"}
{"compound": "O=C1OC(C(Cl)c2ccccc2Br)c2ccccc21", "read by": "MTT", "result": "59.2 µM"}
{"compound": "COc1nc(C)nc(N2C(=O)CSC2c2c(Cl)ncnc2Cl)n1", "read by": "MTT", "result": "147 µg/mL"}
{"compound": "CCOC(=O)C(N)(C1=CNC2C=CC=C(O)C12)C(F)(F)F", "read by": "MTT", "result": ">132 µM"}
{"compound": "CCOC(=O)C(O)(c1cn(CCC(C)C)c2ccccc12)C(F)(F)F", "read by": "MTT", "result": "147 µM"}
{"compound": "C[C@H](Cn1cnc2c(N)ncnc21)OCP(=O)(O)O", "read by": "visual reading", "result": ">100 µM"}
{"compound": "Cc1ccc(-n2ncc3c(=O)[nH]c(C)cc32)cc1", "read by": "MTT", "result": "383 µM"}
{"compound": "CCOC(=O)C(O)(c1c[nH]c2ccc(C=O)cc12)C(F)(F)F", "read by": "MTT", "result": "135 µM"}
{"compound": "C/C1=C/C[C@@H](/C(C)=C/c2csc(C)n2)OC(=O)C[C@H](O)C(C)(C)C(=O)[C@H](C)[C@@H](O)[C@@H](C)CCC1", "result": "0.012 µM"}
{"compound": "CN(C)CCCn1c(=O)c2ccc3c(=O)n(CCCN(C)C)c(=O)c4c5[nH]c6ccccc6[nH]c5c(c1=O)c2c34", "read by": "MTT", "result": "0.532 µM"}
{"compound": "COC(=O)C(O)(c1c[nH]c2ccc(C#N)cc12)C(F)(F)F", "read by": "MTT", "result": "167 µM"}
{"compound": "CC(Cl)C1(c2ccc(F)cc2)OC(=O)c2c(Br)c(Br)c(Br)c(Br)c21", "read by": "MTT", "result": "133 µM"}
{"compound": "CC1=CC2=C(C(C)C)C(O)C(=O)/C(=C\\N[C@H](C)C(=O)O)C2C(O)=C1c1c(C)cc2c(C(C)C)c(O)c(O)c(C=N[C@@H](C)C(=O)O)c2c1O.[Na+].[Na+]", "read by": "MTT", "result": "64.1 µM"}
{"compound": "CCC(=C/[C@H](C)C/C=C/C(C)=C/[C@@H](C)C(=O)[C@@H](C)[C@H](O)[C@@H](C)C/C(C)=C/C(=O)O)/C=C/[C@@H]1OC(=O)C=C[C@@H]1C", "read by": "ATP / luminescence", "result": "0.016 µM"}
{"compound": "CCCCCOC(=O)C[C@H](NP(=O)(CO[C@H](CF)COc1nccc(N)n1)Oc1ccccc1)C(=O)OCCCCC", "read by": "luminescence", "result": "43.21 µM"}
{"compound": "Clc1cc(/C=C/c2ccco2)nc2ccccc12", "read by": "MTT", "result": "103 µM"}
{"compound": "COC(=O)C(O)(c1c[nH]c2ccc(Cl)cc12)C(F)(F)F", "read by": "MTT", "result": "168 µM"}
{"compound": "Cc1ccnc2c1NC(=O)c1cccnc1N2C1CC1", "read by": "MTT", "result": "150 µM"}
{"compound": "Cc1cc(C)nc(N2C(=O)CSC2c2c(Cl)ncnc2Cl)n1", "read by": "MTT", "result": "98.26 µM"}

For reference, 6 entries again:

compound | read by | result
O=C1OC(CCl)(c2ccc(F)cc2)c2ccccc21 | MTT | 290 µM
Cc1cc2c(C(C)C)c(O)c(O)c(C=O)c2c(O)c1-c1c(C)cc2c(C(C)C)c(O)c(O)c(C=O)c2c1O | MTT | 9.74 µM
CC(C)C[C@H](N)C(=O)O.[Na+] | MTT | 53.99 µM
Clc1cc(/C=C/c2ccc(-c3ccccc3)cc2)nc2ccccc12 | MTT | 78.11 µM
Cc1ccc(-n2ncc3c(=O)[nH]c(C)cc32)cc1 | MTT | 383 µM
CCOC(=O)C(O)(c1c[nH]c2ccccc12)C(F)(F)F | MTT | 279 µM